Data as given in PubChem BioAssay AID624099 (ICCB-Longwood, 2012)
Screen: 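Human genes that papillomavirus E2 requires to repress the HPV18 LCR promoter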 (primary screen). System: human C33A cervical carcinoma cells (HPV-negative) stably expressing BPV1 E2 and an HPV18 LCR luciferase reporter. Reagents: siRNA pool against human genes, 40 nM. Timing: 72 h. Read-out: 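Per-well luciferase luminescence, z-scored on each plate against the plate mean and SD with control wells left out, then averaged across three replicate plates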. Direction: mean z-score and z-score: higher = stronger reporter signal, weaker E2 silencing. Hit rule: 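Hit if mean z-score reaches 2 and two or more of three replicate z-scores also reach 2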.
The deposit covers about 21,000 reagents; below is a part drawn at random. In the full data, 497 (2.4%) were called active. 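Higher z means weaker E2 silencing; only reporter increases were scored, and knock-downs that hurt cell survival may mask genuine repressor factors.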 The numbers tell different reagents against one gene apart.

Target gene	reagent no.	mean z-score	z-score, replicate A	z-score, replicate B	z-score, replicate C	Call
ZRSR2	1	-0.62	-0.56	-0.55	-0.74	inactive
KRTAP5-1	1	-0.31	-0.75	-0.13	-0.06	inactive
ASTN1	1	0.51	0.56	0.38	0.59	inactive
TNFRSF13B	1	0.15	0.26	0	0.2	inactive
GP1BB	1	0.15	0.03	0.29	0.13	inactive
MOS	1	1.47	1.48	1.22	1.72	inactive
ARSJ	1	0.7	0.77	1.05	0.28	inactive
TRA2B	1	0.84	1.03	0.86	0.63	inactive
CALB1	1	0.83	0.66	0.95	0.88	inactive
LOC402560 (retired record)	1	0.14	0.49	0	-0.08	inactive
ADCY2	1	1.15	1.23	1.33	0.9	inactive
GSC2	1	-1.4	-0.94	-1.95	-1.32	inactive
RBM38	1	0.66	0.63	0.75	0.59	inactive
NDUFS6	1	0.43	0.36	0.53	0.4	inactive
GJC1	1	0.7	0.65	0.55	0.89	inactive
PRR15	1	0.83	1.08	0.78	0.62	inactive
TMPRSS11B	1	0.24	0.13	0.05	0.53	inactive
CACNA1S	1	-1.08	-1.17	-0.96	-1.1	inactive
YIPF2	1	-0.14	-0.31	-0.06	-0.05	inactive
S100P	1	4.06	4.27	4.27	3.64	active
AJUBA	1	0.68	1.13	0.18	0.73	inactive
OSGEP	1	0.19	0.46	0.15	-0.03	inactive
MPHOSPH9	1	-0.67	-0.74	-0.54	-0.72	inactive
CD40LG	1	0.17	0.26	0.07	0.2	inactive
POLR1C	1	0.6	0.45	0.74	0.62	inactive
RETREG1	1	-0.08	-0.2	0.12	-0.15	inactive
MINDY1	1	0.81	0.77	0.78	0.87	inactive
LOC339306 (retired record)	1	0.55	0.12	0.74	0.79	inactive
FLVCR2	1	-1.28	-1.32	-1.35	-1.15	inactive
LGALSL	1	1.64	1.9	1.82	1.2	inactive
DNAJC14	1	0.2	0.2	0.4	0.02	inactive
LOC387697 (retired record)	1	0.1	0.06	0.02	0.22	inactive
ZNF772	1	-0.48	-0.51	-0.42	-0.51	inactive
GRIA3	1	0.4	0.52	0.33	0.37	inactive
TIMM9	1	2.85	3.16	2.5	2.89	active
CLRN3	1	0.48	0.14	0.79	0.5	inactive
GPR42	1	1.92	1.91	1.74	2.1	inactive
SLC35A3	1	-0.56	-0.66	-0.62	-0.39	inactive
MYH6	1	-1.45	-1.15	-1.46	-1.72	inactive
EIF3H	1	-0.39	-0.43	-0.3	-0.44	inactive
ITGB7	1	-0.96	-0.66	-1.2	-1.02	inactive
SIGLEC11	1	-1.31	-1.32	-1.15	-1.46	inactive
PRKACA	1	-1.01	-0.63	-1.34	-1.07	inactive
LOC401312	1	-1.05	-1.35	-0.9	-0.92	inactive
LOC401312	2	-0.68	-0.62	-0.47	-0.94	inactive
ZNG1A	1	-0.22	-0.8	0.13	0.01	inactive
USP19	1	-0.91	-1.03	-0.7	-1.01	inactive
RPL32P17	1	1.11	1.04	1.08	1.22	inactive
LHFPL3	1	-0.71	-0.36	-0.83	-0.93	inactive
SPON1	1	-0.85	-0.92	-0.81	-0.81	inactive
LOC387706 (retired record)	1	0.29	0.72	-0.17	0.34	inactive
LINC00974	1	-0.59	0.42	-1.64	-0.55	inactive
NLRX1	1	-0.57	-0.52	-0.5	-0.68	inactive
OXSM	1	1.24	1.37	1.31	1.02	inactive
LOC387898 (retired record)	1	0.57	0.51	0.72	0.49	inactive
LOC389310 (retired record)	1	-0.68	-1.21	-0.41	-0.41	inactive
QARS1	1	0.12	-0.01	0.15	0.23	inactive

Called active (from the list above):
Target gene	reagent no.	mean z-score	z-score, replicate A	z-score, replicate B	z-score, replicate C	Call
S100P	1	4.06	4.27	4.27	3.64	active
TIMM9	1	2.85	3.16	2.5	2.89	active
